Reference: ChEMBL document CHEMBL2396622, “Interfacial cavity filling to optimize CD4-mimetic miniprotein interactions with HIV-1 surface glycoprotein” (J Med Chem, 2013)

Experiments:
[1] = test system: Human immunodeficiency virus 1; assay: Displacement of soluble CD4 from HIV1 CN54 gp120 after overnight incubation by ELISA relative to M48
[2] = test system: Human immunodeficiency virus 1; assay: Ratio of IC50 for HIV1 CN54 gp120 to IC50 for HIV1 SF162 gp120
[3] = molecular target: Envelope glycoprotein gp160 (Human immunodeficiency virus type 1 group M subtype B (isolate SF162)(HIV-1), UniProt P19550); assay: Displacement of soluble CD4 from HIV1 SF162 gp120 after overnight incubation by ELISA; set-up: species or system Human immunodeficiency virus type 1 (SF162 ISOLATE)
[4] = Displacement of soluble CD4 from HIV1 CN54 gp120 after overnight incubation by ELISA; set-up: species or system Human immunodeficiency virus 1
[5] = molecular target: Envelope glycoprotein gp160 (Human immunodeficiency virus type 1 group M subtype B (isolate SF162)(HIV-1)) (UniProt P19550); assay: Displacement of soluble CD4 from HIV1 SF162 gp120 after overnight incubation by ELISA relative to M48; conditions: Human immunodeficiency virus type 1 (SF162 ISOLATE)
[6] = test system: Human immunodeficiency virus 1; assay: Antiviral activity against subtype C R5 tropic HIV1 p246F10 infected in human TZM-bl cells after 48 hrs by luciferase repoter gene assay; type: functional, organism-based; conditions: Human immunodeficiency virus 1, p246F10, TZM-bl
[7] = test system: Human immunodeficiency virus 1; assay: Antiviral activity against subtype B R5 tropic HIV1 pREJO.c/2864 infected in human TZM-bl cells after 48 hrs by luciferase repoter gene assay; type: functional, organism-based; conditions: Human immunodeficiency virus 1, pREJO.c/2864, TZM-bl
[8] = test system: Human immunodeficiency virus 1; assay: Antiviral activity against subtype B R5 tropic HIV1 Bal infected in human GHOST cells; type: functional, organism-based; conditions: Human immunodeficiency virus 1, Bal
[9] = test system: Human immunodeficiency virus 1; assay: Antiviral activity against subtype B R5 tropic HIV1 Bal infected in human TZM-bl cells after 48 hrs by luciferase repoter gene assay; type: functional, organism-based; conditions: Human immunodeficiency virus 1, Bal
[10] = test system: Human immunodeficiency virus 1; assay: Antiviral activity against subtype C R5 tropic HIV1 VI829 infected in human TZM-bl cells after 48 hrs by luciferase repoter gene assay; type: functional, organism-based; conditions: Human immunodeficiency virus 1, VI829, TZM-bl
How it was run: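 TZM-bl cells (10⁴/well) pre-incubated 30 min at 37 °C, 5% CO₂ with serial compound dilutions, then infected with 200 TCID₅₀ virus; luciferase read after 48 h. Triplicate wells, single experiment; % inhibition versus untreated control plotted against concentration, EC₅₀ by non-linear regression.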

[11] = test system: Human immunodeficiency virus 1; assay: Antiviral activity against subtype B X4 tropic HIV1 3B infected in human GHOST cells; type: functional, organism-based; conditions: Human immunodeficiency virus 1, 3B
[12] = test system: Human immunodeficiency virus 1; assay: Antiviral activity against subtype B X4 tropic HIV1 3B infected in human TZM-bl cells after 48 hrs by luciferase repoter gene assay; type: functional, organism-based; conditions: Human immunodeficiency virus 1, 3B
[13] = test system: Human immunodeficiency virus 1; assay: Antiviral activity against subtype C R5 tropic HIV1 VI829 infected in human GHOST cells; type: functional, organism-based; conditions: Human immunodeficiency virus 1, VI829, GHOST
[14] = test system: Human immunodeficiency virus 1; assay: Antiviral activity against subtype C R5 tropic HIV1 VI1358 infected in human TZM-bl cells after 48 hrs by luciferase repoter gene assay; type: functional, organism-based; conditions: Human immunodeficiency virus 1, VI1358, TZM-bl
[15] = test system: Human immunodeficiency virus 1; assay: Antiviral activity against subtype C R5 tropic HIV1 VI1358 infected in human GHOST cells; type: functional, organism-based; conditions: Human immunodeficiency virus 1, VI1358, GHOST

Compound | Ratio IC50 [1] | Ratio IC50 [2] | IC50 [3] | IC50 [4] | Ratio IC50 [5] | EC50 [6] | EC50 [7] | EC50 [8] | EC50 [9] | EC50 [10] | EC50 [11] | EC50 [12] | EC50 [13] | EC50 [14] | EC50 [15]
CC(C)C[C@@H]1NC(=O)CNC(=O)[C@H](CC(C)C)NC(=O)[C@H](CO)NC(=O)[C@H](CCCCN)NC(=O)[C@@H]2CSSC[C@@H](C(=O)N[C@H](C(N)=O)C(C)C)NC(=O)[C@H](C)NC(=O)[C@@H]3CSSC[C@H](NC(=O)[C@H](Cc4ccccc4)NC(=O)[C@H](Cc4cnc[nH]4)NC(=O)[C@H](CC(C)C)NC(=O)[C@H](CC(N)=O)NC(=O)CCSSC[C@H](NC(=O)[C@H](CCCNC(=N)N)NC(=O)CNC(=O)[C@H](CC(C)C)NC1=O)C(=O)N[C@@H](C)C(=O)N1CCC[C@@H]1C(=O)N[C@@H]([C@@H](C)O)C(=O)N[C@@H](Cc1ccc(OCC[S+]([O-])CCO)cc1)C(=O)N3)C(=O)N[C@@H](CCC(N)=O)C(=O)N[C@@H](CC(C)C)C(=O)N[C@@H](CCCNC(=N)N)C(=O)N2 (stereo partly specified) | 424 | 152 | 8.1 nM | 1230 nM | 15 |  |  |  |  |  |  |  |  |  | 
CC(C)C[C@@H]1NC(=O)CNC(=O)[C@H](CC(C)C)NC(=O)[C@H](CO)NC(=O)[C@H](CCCCN)NC(=O)[C@@H]2CSSC[C@@H](C(=O)N[C@H](C(N)=O)C(C)C)NC(=O)[C@H](C)NC(=O)[C@@H]3CSSC[C@H](NC(=O)[C@H](Cc4ccccc4)NC(=O)[C@H](Cc4cnc[nH]4)NC(=O)[C@H](CC(C)C)NC(=O)[C@H](CC(N)=O)NC(=O)CCSSC[C@H](NC(=O)[C@H](CCCNC(=N)N)NC(=O)CNC(=O)[C@H](CC(C)C)NC1=O)C(=O)N[C@@H](C)C(=O)N1CCC[C@@H]1C(=O)N[C@@H]([C@@H](C)O)C(=O)N[C@@H](Cc1ccc(OCCc4ccccc4)cc1)C(=O)N3)C(=O)N[C@@H](CCC(N)=O)C(=O)N[C@@H](CC(C)C)C(=O)N[C@@H](CCCNC(=N)N)C(=O)N2 | 4 | 37 | 0.32 nM | 11.7 nM | 0.6 | > 1000 nM | > 1000 nM | 67 nM | 22 nM | > 1000 nM | 3 nM | 1.2 nM | 951 nM | > 1000 nM | 364 nM
CC(C)C[C@@H]1NC(=O)CNC(=O)[C@H](CC(C)C)NC(=O)[C@H](CO)NC(=O)[C@H](CCCCN)NC(=O)[C@@H]2CSSC[C@@H](C(=O)N[C@H](C(N)=O)C(C)C)NC(=O)[C@H](C)NC(=O)[C@@H]3CSSC[C@H](NC(=O)[C@H](Cc4ccccc4)NC(=O)[C@H](Cc4cnc[nH]4)NC(=O)[C@H](CC(C)C)NC(=O)[C@H](CC(N)=O)NC(=O)CCSSC[C@H](NC(=O)[C@H](CCCN=C(N)N)NC(=O)CNC(=O)[C@H](CC(C)C)NC1=O)C(=O)N[C@@H](C)C(=O)N1CCC[C@@H]1C(=O)N[C@@H]([C@@H](C)O)C(=O)N[C@@H](Cc1ccc(OCCCCCO)cc1)C(=O)N3)C(=O)N[C@@H](CCC(N)=O)C(=O)N[C@@H](CC(C)C)C(=O)N[C@@H](CCCN=C(N)N)C(=O)N2 |  |  | 0.3 nM |  |  |  |  |  |  |  |  |  |  |  | 
CC(C)C[C@@H]1NC(=O)CNC(=O)[C@H](CC(C)C)NC(=O)[C@H](CO)NC(=O)[C@H](CCCCN)NC(=O)[C@@H]2CSSC[C@@H](C(=O)N[C@H](C(N)=O)C(C)C)NC(=O)[C@H](C)NC(=O)[C@@H]3CSSC[C@H](NC(=O)[C@H](Cc4ccccc4)NC(=O)[C@H](Cc4cnc[nH]4)NC(=O)[C@H](CC(C)C)NC(=O)[C@H](CC(N)=O)NC(=O)CCSSC[C@H](NC(=O)[C@H](CCCNC(=N)N)NC(=O)CNC(=O)[C@H](CC(C)C)NC1=O)C(=O)N[C@@H](C)C(=O)N1CCC[C@@H]1C(=O)N[C@@H]([C@@H](C)O)C(=O)N[C@@H](Cc1ccc(OCCCCCO)cc1)C(=O)N3)C(=O)N[C@@H](CCC(N)=O)C(=O)N[C@@H](CC(C)C)C(=O)N[C@@H](CCCNC(=N)N)C(=O)N2 | 0.83 | 8 |  | 2.4 nM | 0.6 | > 1000 nM | 682 nM |  | 17 nM | > 1000 nM |  | 1 nM |  | > 1000 nM | 
